This assay deals with Lethal Factor (LF) protease of anthrax toxin (Bacillus anthracis, UniProt P15917). The format is biochemical.

Amino acid sequences for entries named in this document (tags omitted). Residues count along the entry.
UniProt P15917, 34-809 limits assumed: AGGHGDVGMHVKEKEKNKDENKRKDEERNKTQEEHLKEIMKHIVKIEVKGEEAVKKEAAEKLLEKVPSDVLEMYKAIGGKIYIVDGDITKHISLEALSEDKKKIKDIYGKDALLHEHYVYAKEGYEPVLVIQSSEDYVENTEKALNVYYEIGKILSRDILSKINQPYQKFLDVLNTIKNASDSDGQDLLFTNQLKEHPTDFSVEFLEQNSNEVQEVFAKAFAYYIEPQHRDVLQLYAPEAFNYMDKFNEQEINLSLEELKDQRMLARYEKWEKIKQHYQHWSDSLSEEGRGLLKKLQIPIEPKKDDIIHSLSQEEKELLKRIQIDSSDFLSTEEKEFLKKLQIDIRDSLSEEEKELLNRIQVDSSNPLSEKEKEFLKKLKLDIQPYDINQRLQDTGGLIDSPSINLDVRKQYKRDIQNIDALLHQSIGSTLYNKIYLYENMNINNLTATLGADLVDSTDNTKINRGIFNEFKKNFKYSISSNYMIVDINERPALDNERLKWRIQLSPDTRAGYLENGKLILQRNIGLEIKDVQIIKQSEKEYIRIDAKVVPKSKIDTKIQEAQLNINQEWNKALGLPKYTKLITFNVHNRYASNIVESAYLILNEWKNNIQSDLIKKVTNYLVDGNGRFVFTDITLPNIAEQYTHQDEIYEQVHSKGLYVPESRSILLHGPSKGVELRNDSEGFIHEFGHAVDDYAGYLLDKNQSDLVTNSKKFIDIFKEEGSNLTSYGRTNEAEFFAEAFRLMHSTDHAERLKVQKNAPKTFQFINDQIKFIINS

As a reminder, the IC50 is the concentration at which inhibition is half-maximal. A higher IC50 goes with weaker potency in that assay.

`O=C1/C(=C/c2ccc(-c3ccc([N+](=O)[O-])cc3)o2)SC(=S)N1Cc1ccco1` [Compound 9] registered an IC50 of 12.6 µM.
The value for `O=C(O)CCN1C(=O)/C(=C/c2ccc(-c3ccc([N+](=O)[O-])cc3)o2)SC1=S` [Compound 19] was 2.7 µM.

Values taken from patent publication US7718680B2 (priority 2004, dated 2010).
